{"source": "PubChem BioAssay AID624099 (ICCB-Longwood, 2012)", "screen": "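Knock-downs relieving repression by E2 of an HPV18 LCR luciferase reporter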 (primary screen)", "system": "human C33A cervical carcinoma cells (HPV-negative) stably expressing BPV1 E2 and an HPV18 LCR luciferase reporter", "knock-down reagent": "siRNA pool against human genes, 40 nM", "timing": "72 h", "read-out": "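Per-well luciferase luminescence, z-scored on each plate against the plate mean and SD with control wells left out, then averaged across three replicate plates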", "direction": "mean z-score and z-score: higher = stronger reporter signal, weaker E2 silencing", "rule for the call": "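Mean z ≥ 2 together with z ≥ 2 in two or more of the three replicates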", "note": "Here is an unselected part of about 21,000 deposited reagents. 497 of them (2.4%) were called active. 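Higher z means weaker E2 silencing; only reporter increases were scored, and knock-downs that hurt cell survival may mask genuine repressor factors.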 Entries without a mark were called inactive. Reagents against one gene are numbered here."}
{"Gene":"TMTC1","reagent no.":1,"mean z-score":1.5,"z-score, replicate A":1.56,"z-score, replicate B":1.16,"z-score, replicate C":1.79}
{"Gene":"TIE1","reagent no.":1,"mean z-score":1.97,"z-score, replicate A":1.73,"z-score, replicate B":2.11,"z-score, replicate C":2.09}
{"Gene":"CASS4","reagent no.":1,"mean z-score":0.58,"z-score, replicate A":0.69,"z-score, replicate B":0.77,"z-score, replicate C":0.29}
{"Gene":"C2CD2","reagent no.":1,"mean z-score":-1.01,"z-score, replicate A":-1.01,"z-score, replicate B":-1.08,"z-score, replicate C":-0.95}
{"Gene":"C2CD2","reagent no.":2,"mean z-score":-0.33,"z-score, replicate A":-0.34,"z-score, replicate B":-0.27,"z-score, replicate C":-0.39}
{"Gene":"LOC401622 (retired record)","reagent no.":1,"mean z-score":0.5,"z-score, replicate A":0.32,"z-score, replicate B":0.92,"z-score, replicate C":0.25}
{"Gene":"IQGAP3","reagent no.":1,"mean z-score":-0.48,"z-score, replicate A":-0.31,"z-score, replicate B":-0.76,"z-score, replicate C":-0.38}
{"Gene":"H2BC12L","reagent no.":1,"mean z-score":-0.29,"z-score, replicate A":0.04,"z-score, replicate B":-0.27,"z-score, replicate C":-0.64}
{"Gene":"LOC392726 (retired record)","reagent no.":1,"mean z-score":0.19,"z-score, replicate A":0.49,"z-score, replicate B":0.12,"z-score, replicate C":-0.06}
{"Gene":"ZNF703","reagent no.":1,"mean z-score":0.31,"z-score, replicate A":0.72,"z-score, replicate B":0.21,"z-score, replicate C":0.01}
{"Gene":"PRUNE1","reagent no.":1,"mean z-score":1.03,"z-score, replicate A":1.37,"z-score, replicate B":0.68,"z-score, replicate C":1.05}
{"Gene":"BARX1","reagent no.":1,"mean z-score":-0.15,"z-score, replicate A":-0.34,"z-score, replicate B":-0.35,"z-score, replicate C":0.24}
{"Gene":"ZYX","reagent no.":1,"mean z-score":-0.2,"z-score, replicate A":-0.52,"z-score, replicate B":-0.1,"z-score, replicate C":0.01}
{"Gene":"CNDP2","reagent no.":1,"mean z-score":-0.3,"z-score, replicate A":-0.06,"z-score, replicate B":-0.56,"z-score, replicate C":-0.28}
{"Gene":"HCN2","reagent no.":1,"mean z-score":-0.9,"z-score, replicate A":-0.8,"z-score, replicate B":-1.17,"z-score, replicate C":-0.74}
{"Gene":"LOC158813 (retired record)","reagent no.":1,"mean z-score":-1.46,"z-score, replicate A":-1.26,"z-score, replicate B":-1.78,"z-score, replicate C":-1.35}
{"Gene":"ABHD4","reagent no.":1,"mean z-score":-0.79,"z-score, replicate A":-0.57,"z-score, replicate B":-0.93,"z-score, replicate C":-0.86}
{"Gene":"ARB2BP","reagent no.":1,"mean z-score":-0.61,"z-score, replicate A":-0.77,"z-score, replicate B":-0.78,"z-score, replicate C":-0.28}
{"Gene":"ZNF274","reagent no.":1,"mean z-score":-0.91,"z-score, replicate A":-1.13,"z-score, replicate B":-0.54,"z-score, replicate C":-1.06}
{"Gene":"RNF151","reagent no.":1,"mean z-score":-0.65,"z-score, replicate A":-0.62,"z-score, replicate B":-0.64,"z-score, replicate C":-0.68}
{"Gene":"SSR4","reagent no.":1,"mean z-score":-1.86,"z-score, replicate A":-1.74,"z-score, replicate B":-1.88,"z-score, replicate C":-1.98}
{"Gene":"LOC401713 (retired record)","reagent no.":1,"mean z-score":1.16,"z-score, replicate A":1.1,"z-score, replicate B":0.95,"z-score, replicate C":1.42}
{"Gene":"PRDX1","reagent no.":1,"mean z-score":-0.54,"z-score, replicate A":-0.81,"z-score, replicate B":-0.5,"z-score, replicate C":-0.33}
{"Gene":"LOC401891 (retired record)","reagent no.":1,"mean z-score":-0.95,"z-score, replicate A":-0.93,"z-score, replicate B":-0.97,"z-score, replicate C":-0.94}
{"Gene":"CCDC17","reagent no.":1,"mean z-score":0.37,"z-score, replicate A":-0.15,"z-score, replicate B":0.69,"z-score, replicate C":0.57}
{"Gene":"NEK1","reagent no.":1,"mean z-score":0.94,"z-score, replicate A":0.56,"z-score, replicate B":1.64,"z-score, replicate C":0.63}
{"Gene":"GBX2","reagent no.":1,"mean z-score":-1.41,"z-score, replicate A":-1.15,"z-score, replicate B":-1.48,"z-score, replicate C":-1.61}

Ordered by “z-score, replicate A” (lowest first): some entries from above.
{"Gene":"C2CD2","reagent no.":1,"mean z-score":-1.01,"z-score, replicate A":-1.01,"z-score, replicate B":-1.08,"z-score, replicate C":-0.95}
{"Gene":"CASS4","reagent no.":1,"mean z-score":0.58,"z-score, replicate A":0.69,"z-score, replicate B":0.77,"z-score, replicate C":0.29}
